# Experiment: Quantification of erucamide in Arabidopsis leaves (GC-MS/MS)
structure (smiles),measurement,setting,value
"CCCCCCCC/C=C\CCCCCCCCCCCC(N)=O (single isomer, unassigned) [Compound T3SI-1, erucamide]",concentration of erucamide in leaves,Col-0,about 2.6 g/g
same,concentration of erucamide in leaves,FAAH overexpression plants,about 1.6 mg/g
